Results: US20040235049A1 (priority 2001, published 2004)

Test: Checking of quality of semicarbazide slides with rhodamine-conjugated peptide probe
Conditions: probe 0.1 mM, pH 5.5, 1 hour 37° C.
[1] = functionalised slides, first modification
[2] = functionalised slides, second modification

Q: With “(5)-6-carboxytetramethylrhodamine-Lys-Arg-NH—(CH2)3—NH—CO—CHO [α-oxo aldehyde]” as the substance, how does the Mean fluorescence [1] read?
A: 36260

Q: And the Mean fluorescence [2]?
A: 28882

Q: What about the Mean fluorescence (non-functionalised slides) of the same substance?
A: 7789

Q: With “(5)-6-carboxytetramethyl-rhodamine-Lys-Arg-NH2 [amide]” as the substance, how does the Mean fluorescence [1] read?
A: 3450

Q: And the Mean fluorescence [2]?
A: 1732

Q: And the Mean fluorescence (non-functionalised slides)?
A: 5270
